{"source": "patent EP0695746A2", "about": "“Antiviral compounds and pharmaceutical compositions” (PHARMA MAR, S.A., priority 1994, dated 1996)", "tested_on": "HIV-1 RF", "test": "XTT cytoprotection assay (called Cytotoxic Assay in the tables), antiviral activity", "assay_type": "cell-based", "details": "listed as PM-92131 (±) (289-8)"}
{"compound": "CC1(C)CCC[C@@]2(C)[C@H](c3ccoc3)C(=O)[C@H]3O[C@@]312", "note": "(racemic) [PM-92131 (±)]", "values": [{"measurement": "SI", "setting": "Table II", "value": ">5"}, {"measurement": "SI", "setting": "Table III", "value": ">5"}]}
